# PubChem BioAssay AID504761 | Drosophila RNAi Screening Center, 2011
# Aim: 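Genome-wide fly cell screen for genes dengue virus requires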 (primary screen)
# Cells: D.Mel-2 cells from Drosophila
# Reagent: long dsRNA against Drosophila genes
# Challenge: infection with dengue virus type 2; dose and infection time not stated
# Measured: 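Per well on two replicate plates, imaging gave the percent of cells positive for viral envelope protein, ranked by infection, and a nuclear count of cells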
# Reading the numbers: infection score: higher = more virus-infected cells; cell count: higher = more cells in the well
# Rule for the call: 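Low infection ranks in the two replicates (chance level up to 0.065) followed by a retest with a 1.5-fold or larger significant decrease, p below 0.05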
# Meaning of the calls: active = confirmed: knock-down lowers infection; inactive = not picked or not confirmed
# The screen tested about 22,000 reagents; below is an unselected part of those with a known target gene and a result. Of all reagents, 116 (0.52%) were called active. 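Calls depend on retest data that are not deposited; infection was ranked per plate without normalising between plates; the unit of the infection score is not given.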 Raw values vary from plate to plate and are shown uncorrected. The record does not give: the amount of reagent, the time to read-out.
gene,amplicon,"infection score, replicate 1","infection score, replicate 2","cell count, replicate 1","cell count, replicate 2",activity call
CG14857,DRSC14981,3.93,14.5,6689,6298,inactive
CG13066,DRSC09949,1.08,1.24,6323,6715,inactive
eg,DRSC11885,2.6,5.07,6031,6366,inactive
eg,DRSC26147,5.76,4.59,6193,6564,inactive
Adgf-A2,DRSC09507,0.17,0.13,6509,6351,active
robo3,DRSC00374,0.92,7.33,6285,6716,inactive
robo3,DRSC00684,2.55,22.4,6398,6660,inactive
CG11384,DRSC18628,3.52,1.01,6512,6701,inactive
Grl43a,DRSC06383,15.6,10.3,5873,2832,inactive
Gr92a,DRSC21631,0.65,1.3,6172,6676,inactive
Ance,DRSC01865,15.4,9.71,5882,5467,inactive
CG5535,DRSC10514,8.42,12,4406,5727,inactive
CG5535,DRSC29215,,,381,290,inactive
CG32437,DRSC11760,12.2,2.52,6316,5592,inactive
CG32437,DRSC22020,3.44,14,7068,6731,inactive
CG32437,DRSC27187,6.13,18.1,6883,6899,inactive
CG8661,DRSC20115,2.08,4.51,6571,6565,inactive
CG8661,DRSC29778,21.7,13.9,5891,5685,inactive
Psf1,DRSC08638,3.15,8.69,6701,6455,inactive
Psf1,DRSC24486,6.41,6.54,6861,6296,inactive
sing,DRSC19530,4.3,3.67,6538,6787,inactive
Srp72,DRSC15800,3.71,4.76,5978,6738,inactive
Srp72,DRSC28338,6.28,6.4,5825,4701,inactive
Dph2,DRSC16222,16.6,9.54,6381,6606,inactive
Dph2,DRSC26401,3.1,2.36,6680,5599,inactive
NijC,DRSC14851,2.2,4.09,6508,6189,inactive
NijC,DRSC29054,9.03,,3575,268,inactive
CG14332,DRSC14811,,18.5,308,5596,inactive
Pebp1,DRSC15354,10.7,13.2,2423,4951,inactive
CG31915,DRSC03000,2.32,1.5,5788,6730,inactive
Blos4,DRSC10151,1.36,0.53,5798,6070,inactive
Blos4,DRSC27533,2.31,6.8,7101,6031,inactive
Eig71Ek,DRSC11158,4.93,3.19,5574,5923,inactive
Npc2c,DRSC15523,3.86,2.19,6529,6379,inactive
Npc2c,DRSC28593,12.3,4.07,4201,1057,inactive
wfs1,DRSC15676,2.08,3.69,6102,839,inactive
CG9399,DRSC16488,7.58,21,6586,6611,inactive
D1,DRSC16638,2.47,4.01,6245,6750,inactive
Ktl,DRSC14270,5.69,6.6,6481,6304,inactive

Active calls, of those listed so far:
gene,amplicon,"infection score, replicate 1","infection score, replicate 2","cell count, replicate 1","cell count, replicate 2",activity call
Adgf-A2,DRSC09507,0.17,0.13,6509,6351,active
